Results: publication PMC5319851 (Bioorganic & medicinal chemistry, 2016)

Tested on: primary pulmonary vascular endothelial cells (ECs)

Oc1ccc(Cl)c2cccnc12 [Compound 22, 5-chloro-8-quinolinol]
Host EC metabolism (WST-1) of uninfected ECs: stimulated EC metabolism
